Pooled drug test results. Numbers come from NIAID ChemDB, via PubChem.

Common to all: tests on isolated targets

Rows are shuffled and stem from different studies. ICn is the concentration giving n% inhibition. Percent inhibition refers to the dose given; in toxicity tests it is the harm to the cells. Blank or dashed fields: not listed here. a–b is a range or a potency band.

SMILES,protein,read by,tested at,read-out,organism,value
CC(C[NH3+])N(C(=O)c1ccc(Cl)cc1Cl)c1cc(-c2ccccc2)sc1C(=O)O,NS3 ATPase,-,-,IC50,Hepatitis C virus,<5 µM
CCOC(=O)CC(c1cccs1)C(Cc1ccc(C)cc1)N(Cc1cccc(-c2cc3ccccc3o2)c1)S(=O)(=O)c1c(C)cc(OC)c(C)c1C,RNA-dependent RNA polymerase,-,-,IC50,Hepatitis C virus,5–20 µM
O=C1/C(=C\c2cc(F)c(F)cc2F)SC(=S)N1NS(=O)(=O)c1ccc(Cl)cc1,NS5B polymerase,-,-,IC50,Hepatitis C virus,≤30 µM
CN1CCNCCC1c1cc(C(=O)Nc2ccc3cn[nH]c3c2)c(F)cc1F,Reverse transcriptase,-,-,IC50,Hepatitis B virus,0.1–1 µg/mL
O=C(O)[C@@H](Cc1ccccc1)N(Cc1ccc(-c2ccccc2C(F)(F)F)o1)C(=O)c1ccccc1F,Nonstructural protein 3 NTPase/helicase,HPLC,-,IC50,Hepatitis C virus,5–20 µM
O=C(O)c1sc(-c2ccccc2)cc1NS(=O)(=O)c1ccc(Br)cc1,NS3 ATPase,-,-,IC50,Hepatitis C virus,<5 µM
O=C(Nc1ccc2[nH]ncc2c1)c1cc(N2CCNCC2)c(F)cc1F,Nonstructural protein 5B,-,1 µg/mL,inhibition,Hepatitis C virus,42%
O=C(O)[C@H](Cc1ccccc1)N(Cc1ccc(Br)o1)C(=O)c1ccc(Cl)cc1I,RNA-dependent RNA polymerase,-,-,IC50,Hepatitis C virus,<5 µM
CC1=NCCN1c1cc(C(=O)Nc2ccc3[nH]ncc3c2)c(F)cc1F,Reverse transcriptase,-,0.1 µg/mL,inhibition,Hepatitis B virus,40%
O=C(O)/C=C/c1cccc(-c2nc(C(=O)O)c(O)c(=O)[nH]2)c1,HCV polymerase,-,-,IC50,Hepatitis C virus,<100 µM
O=C(O)c1sc(-c2ccccc2)cc1NS(=O)(=O)c1ccc(Cl)c(Cl)c1,NS3 ATPase,-,-,IC50,Hepatitis C virus,5–20 µM
O=C(O)c1nc(-c2ccc(Cl)cc2)[nH]c(=O)c1O,HCV polymerase,-,-,IC50,Hepatitis C virus,<100 µM
O=C(O)c1sc(-c2ccccc2)cc1N(Cc1ccc(F)cc1F)C(=O)C1CCC1,NS3 ATPase,-,-,IC50,Hepatitis C virus,<5 µM
O=C(Nc1ccc2[nH]ncc2c1)c1cc(N2CCN(CCO)CC2)c(F)cc1F,Nonstructural protein 5B,-,10 µg/mL,inhibition,Hepatitis C virus,51%
CC1CCC(C(=O)N(c2cc(-c3ccc(C(F)(F)F)cc3)sc2C(=O)O)C(C)C)CC1,NS3 ATPase,-,-,IC50,Hepatitis C virus,<5 µM
O=C1/C(=C\c2ccc(Br)c(Br)c2)SC(=S)N1NS(=O)(=O)c1cccc(Cl)c1,NS5B polymerase,-,-,IC50,Hepatitis C virus,≤30 µM
O=C(Nc1ccc2[nH]ncc2c1)c1cc(N2CCC(O)CC2)c(F)cc1F,Reverse transcriptase,-,-,IC50,Hepatitis B virus,0.01–0.1 µg/mL
Cc1cc(S(=O)(=O)Nc2cc(-c3ccc(CC(C)C)cc3)sc2C(=O)O)c(C)cc1Cl,NS3 ATPase,-,-,IC50,Hepatitis C virus,5–20 µM
O=C(Cc1cccs1)Nc1cccc(-c2nc(C(=O)O)c(O)c(=O)[nH]2)c1,HCV polymerase,-,-,IC50,Hepatitis C virus,<100 µM
O=C(Nc1ccc2cn[nH]c2c1)c1cc(N2CCN(CCO)CC2)c(F)cc1F,Nonstructural protein 5B,-,1 µg/mL,inhibition,Hepatitis C virus,10%
NN1C(=O)/C(=C\c2ccc(Cl)cc2)SC1=S,NS5B polymerase,-,-,IC50,Hepatitis C virus,≤30 µM
O=C(Nc1ccc2[nH]ncc2c1)c1cc(NCc2ccccn2)c(F)cc1F,Nonstructural protein 5B,-,1 µg/mL,inhibition,Hepatitis C virus,50%
O=C(Nc1ccsc1-c1nc(C(=O)O)c(O)c(=O)[nH]1)OCC1CCCO1,HCV polymerase,-,-,IC50,Hepatitis C virus,<25 µM
CC(C)S(=O)(=O)NN1C(=O)/C(=C\c2ccc(Cl)c(Cl)c2)SC1=S,NS5B polymerase,-,-,IC50,Hepatitis C virus,≤30 µM
O=C(Nc1ccsc1-c1nc(C(=O)O)c(O)c(=O)[nH]1)OCCc1ccsc1,HCV polymerase,-,-,IC50,Hepatitis C virus,<25 µM
CC(C)N(C(=O)C1CC=CCC1)c1cc(-c2ccccc2)sc1C(=O)O,NS3 ATPase,-,-,IC50,Hepatitis C virus,5–20 µM
O=C(Nc1ccsc1-c1nc(C(=O)O)c(O)c(=O)[nH]1)OCC1CCCC1,HCV polymerase,-,-,IC50,Hepatitis C virus,<25 µM
O=C(O)c1sc(-c2ccccc2)cc1NS(=O)(=O)c1ccc(Cl)cc1Cl,NS3 ATPase,-,-,IC50,Hepatitis C virus,<5 µM
O=C(NCc1cccc(OC(F)(F)F)c1)Nc1cccc(-c2nc(C(=O)O)c(O)c(=O)[nH]2)c1,HCV polymerase,-,-,IC50,Hepatitis C virus,<100 µM
CC(C)(C)c1ccc(S(=O)(=O)Nc2cc(-c3ccccc3)sc2C(=O)O)cc1,NS3 ATPase,-,-,IC50,Hepatitis C virus,5–20 µM
N[C@@H](C(=O)Nc1ccsc1-c1nc(C(=O)O)c(O)c(=O)[nH]1)c1ccccc1,HCV polymerase,-,-,IC50,Hepatitis C virus,<25 µM
O=C(O)[C@H](Cc1ccc(O)cc1)N(Cc1ccc(-c2cc3ccccc3o2)cc1)C(=O)c1ccc(Cl)cc1Cl,RNA-dependent RNA polymerase,-,-,IC50,Hepatitis C virus,<5 µM
O=C1NC(=S)S/C1=C/c1ccc(-c2cc(C(F)(F)F)ccc2Cl)o1,NS5B polymerase,-,-,IC50,Hepatitis C virus,≤30 µM
CC(CC(F)(F)F)C(=O)Nc1ccsc1-c1nc(C(=O)O)c(O)c(=O)[nH]1,HCV polymerase,-,-,IC50,Hepatitis C virus,<25 µM

For reference, 3 entries again:

SMILES	protein	read by	tested at	read-out	organism	value
O=C(Nc1ccsc1-c1nc(C(=O)O)c(O)c(=O)[nH]1)OCCc1ccsc1	HCV polymerase	-	-	IC50	Hepatitis C virus	<25 µM
O=C(O)[C@H](Cc1ccc(O)cc1)N(Cc1ccc(-c2cc3ccccc3o2)cc1)C(=O)c1ccc(Cl)cc1Cl	RNA-dependent RNA polymerase	-	-	IC50	Hepatitis C virus	<5 µM
CC(C)S(=O)(=O)NN1C(=O)/C(=C\c2ccc(Cl)c(Cl)c2)SC1=S	NS5B polymerase	-	-	IC50	Hepatitis C virus	≤30 µM